Pooled drug test results. Numbers come from NIAID ChemDB, via PubChem.

Common to all: growth or infection tests; organism: HIV-1; read by: p24; endpoint: EC50

Blank or dashed fields: not listed here. Neighbouring rows are from separate reports. ECn is the concentration giving n% inhibition of infection, replication or growth. a–b is a range or a potency band.

smiles	changes	cells	strain or isolate	result
CCCCOCCOc1ccc(-c2ccc3c(c2)/C=C(/C(=O)Nc2ccc([S@@](=O)Cc4cncn4CCC)cc2)CCCN3CC(C)C)cc1		PBMC	R5-01 R5 clinical isolate	0.00017 µM
CC(=O)SCCOP(=O)(OCCSC(C)=O)OC[C@@H]1CC[C@H](n2ccc(N)nc2=O)O1		MOLT-4/8 + MOLT-4	IIIRF	0.16 µM
Cc1cn(-c2ccc3c(C)nc(CCCCCCC(=O)c4ccccc4)n3n2)cn1		C8166	RF	0.16 µM
CCC(C)[C@H](NC(=O)[C@H](C(C)C)[C@@H](O)[C@H](O)[C@H](CC1CCCCC1)NC(=O)c1ccccc1OCCOCCOC)C(=O)NCc1nc2ccccc2[nH]1		PBMC	D34	0.001–0.01 µM
Cc1cn([C@H]2C[C@H](N=[N+]=[N-])[C@@H](COP(=O)(OCCSC(=O)C(C)(C)C)OCCSC(=O)C(C)(C)C)O2)c(=O)[nH]c1=O		MOLT-4/8 + MOLT-4	IIIRF	0.6 µM
O=C(O)P(=O)(O)O		H9		50 µM
CC(=O)CCCCn1c(=O)c2c(ncn2C)n(C)c1=O		U1/HIV-1 + U1		1000 µM
CC(C)(C)NC(=O)[C@@H]1CN(Cc2ncc(-c3ccccc3)s2)CCN1C[C@@H](O)C[C@@H](Cc1ccccc1)C(=O)N[C@H]1c2ccccc2C[C@H]1O		MT-4	IIIB	<0.025 µM
CCCCCCCCCc1ccc(OCCOCCOCCOCCOCCOCCOCCOCCOCCO)cc1		PBMC		2.2 µM
C/C=C1/[C@H](O[C@@H]2O[C@H](CO)[C@@H](O)[C@H](O)[C@H]2O)OC=C(C(=O)OC)[C@H]1CC(=O)OCCc1ccc(O)c(O)c1		H9	IIIB	0.073 µM
CC(C)Nc1cccnc1N1CCN(C(=O)c2cc3cc(NS(C)(=O)=O)ccc3[nH]2)CC1	RT-Y181C K103N	PBMC	NRTI resistant (RT Y181C K103N) A17 variant	>100 µM
CCC(C1=C(O)C2CCCCCCC2OC1=O)c1cccc(NS(=O)(=O)c2ccc(C#N)cn2)c1		H9	IIIB	2.9 µM
Cc1cn([C@H]2C[C@H](N=[N+]=[N-])[C@@H](CO)O2)c(=O)[nH]c1=O		PBMC	D34	~0.01 µM
CCC[C@@]1(CCc2ccccc2)CC(O)=C([C@H](CC)c2cccc(NS(=O)(=O)c3ccc(C(F)(F)F)cn3)c2)C(=O)O1		H9	IIIB	<0.16 µM
Cc1nc(CCCCCCC(=O)c2ccccc2)n2nc(-n3cncc3C)ccc12		C8166	RF	0.03 µM
CC(C)c1nc(CN(C)C(=O)N[C@H](C(=O)N[C@@H](Cc2ccccc2)C[C@H](O)[C@H](Cc2ccccc2)NC(=O)OCc2cncs2)C(C)C)cs1		PBMC	BaL	0.191 µM
CC1(C)Oc2ccc3ccc(=O)oc3c2[C@@H](OC(=O)C23CCC(C)(C(=O)O2)C3(C)C)[C@H]1OC(=O)C12CCC(C)(C(=O)O1)C2(C)C		H9	IIIB	0.049 µM
Nc1ccn([C@H]2CC[C@@H](CO)O2)c(=O)n1		MOLT-4/8 + MOLT-4	IIIRF	0.17 µM
C[C@H](Sc1nc(N)cc(Cl)n1)c1cc2ccoc2cn1	RT-P236L	MT-4	DLV-resistant MF (RT-P236L)	<0.008 µM
CC(C)(C)NC(=O)[C@@H]1CN(Cc2cccnc2)CCN1C[C@@H](O)C[C@@H](Cc1ccccc1)C(=O)N[C@H]1c2ccccc2C[C@H]1O		PBMC	BaL	0.0261 µM
COC(=O)[C@H](C)NP(=O)(OC[C@H]1O[C@@H](N2C(=O)NC(=O)C(C)(Br)C2OC)C[C@@H]1N=[N+]=[N-])Oc1ccc(Br)cc1		PBMC	IIIB	0.005 µM
Cc1cn([C@H]2C[C@H](N=[N+]=[N-])[C@@H](CO)O2)c(=O)[nH]c1=O		PBMC	G691-2	>10 µM
CCc1cc(NCc2nc3c(Cl)ccc(Cl)c3o2)c(=O)[nH]c1C		MT-4	MN	0.05 µM
Cc1nc(CCCCCOCc2ccccc2)n2nc(Cl)ccc12		C8166	RF	0.38 µM
Cc1cn([C@H]2C[C@H](N=[N+]=[N-])[C@@H](CO)O2)c(=O)[nH]c1=O		PBMC	8890 CLADE C CLADE C	0.006 µM
Cc1cn([C@H]2C[C@H](F)[C@@H](CO)O2)c(=O)[nH]c1=O		CEM	LAV	0.16–0.45 µM
S=C(NCCc1ccccn1)Nc1ccc(Br)cn1	RT-Y181C	PBMC	NRTI resistant (RT Y181C) A17	0.5 µM
CCC(c1cccc(NS(=O)(=O)c2ccc(C#N)cn2)c1)c1c(O)c2c(oc1=O)CCCCCCCC2		H9	IIIB	>3 µM
COC(=O)[C@H](Cc1c[nH]c2ccccc12)NP(=O)(OC[C@H]1O[C@@H](N2C(=O)NC(=O)C(C)(Br)C2OC)C[C@@H]1N=[N+]=[N-])Oc1ccc(Br)cc1		PBMC	IIIB	0.34 µM
COC(=O)[C@H](C)NP(=O)(OC[C@H]1O[C@@H](N2C(=O)NC(=O)C(C)(Br)C2OC)C[C@@H]1N=[N+]=[N-])Oc1ccc(Br)cc1		PBMC		0.005 µM
COc1ccc(CN[C@@H](C(=O)N[C@H]2c3ccccc3C[C@H]2O)[C@H](O)[C@H](Cc2ccccc2)NC(=O)[C@@H](NC(=O)OCc2ccccc2)C(C)(C)C)cc1		Primary monocytes + Monocyte	D747	0.071 µM
CCC(C1=C(O)C2CCCCC2OC1=O)c1cccc(NS(=O)(=O)c2ccc(C#N)cc2)c1		H9	IIIB	>3 µM
Cc1c(O)cccc1C(=O)N[C@@H](CSc1ccccc1)[C@H](O)CN1C[C@H]2CCCC[C@H]2C[C@H]1C(=O)NC(C)(C)C		PBMC	BaL	0.0251 µM
Cc1cn([C@H]2C[C@H](N=[N+]=[N-])[C@@H](CO)O2)c(=O)[nH]c1=O		U1		>0.1 µM
Cc1nc(CCCCCCC(O)c2ccccc2)n2nc(Cl)ccc12		C8166	RF	<0.08 µM
CCC(C)[C@H](NC(=O)[C@H](C(C)C)[C@@H](O)[C@H](O)[C@H](CC1CCCCC1)NC(=O)c1ccccc1OCCOc1ccccc1)C(=O)NCc1nc2ccccc2[nH]1		PBMC	D34	0.1–1 µM
CCC(C1=C(O)C2CCCCCC2OC1=O)c1cccc(NS(=O)(=O)c2ccc(C#N)cn2)c1		H9	IIIB	2 µM
Cc1nc(CCCCCOC(=O)c2ccccc2)n2nc(Cl)ccc12		C8166	RF	1.1 µM

A second listing of 6 rows from above:

{"smiles": "CCC(C)[C@H](NC(=O)[C@H](C(C)C)[C@@H](O)[C@H](O)[C@H](CC1CCCCC1)NC(=O)c1ccccc1OCCOc1ccccc1)C(=O)NCc1nc2ccccc2[nH]1", "cells": "PBMC", "strain or isolate": "D34", "result": "0.1–1 µM"}
{"smiles": "Cc1cn([C@H]2C[C@H](N=[N+]=[N-])[C@@H](CO)O2)c(=O)[nH]c1=O", "cells": "PBMC", "strain or isolate": "G691-2", "result": ">10 µM"}
{"smiles": "S=C(NCCc1ccccn1)Nc1ccc(Br)cn1", "changes": "RT-Y181C", "cells": "PBMC", "strain or isolate": "NRTI resistant (RT Y181C) A17", "result": "0.5 µM"}
{"smiles": "CC(=O)SCCOP(=O)(OCCSC(C)=O)OC[C@@H]1CC[C@H](n2ccc(N)nc2=O)O1", "cells": "MOLT-4/8 + MOLT-4", "strain or isolate": "IIIRF", "result": "0.16 µM"}
{"smiles": "Cc1nc(CCCCCCC(O)c2ccccc2)n2nc(Cl)ccc12", "cells": "C8166", "strain or isolate": "RF", "result": "<0.08 µM"}
{"smiles": "CCC[C@@]1(CCc2ccccc2)CC(O)=C([C@H](CC)c2cccc(NS(=O)(=O)c3ccc(C(F)(F)F)cn3)c2)C(=O)O1", "cells": "H9", "strain or isolate": "IIIB", "result": "<0.16 µM"}